To fix the notation:
B1: nanobody M1R-01 (monovalent) (VHH)
VHH: QVQLVESGGGLVQAGGSLRLSCAASGFIFHNFDMGWYRQAPGKEREFVAAISDNGRSTYYADSVKGRFTISRDNAKNTVYLQMNSLKPEDTAVYYCAVAWLSIPDLAEWYDYWGQGTQVTVSS
B2: recombinant MPXV M1R protein (ectodomain, His-tagged) (domain or fragment)
chain: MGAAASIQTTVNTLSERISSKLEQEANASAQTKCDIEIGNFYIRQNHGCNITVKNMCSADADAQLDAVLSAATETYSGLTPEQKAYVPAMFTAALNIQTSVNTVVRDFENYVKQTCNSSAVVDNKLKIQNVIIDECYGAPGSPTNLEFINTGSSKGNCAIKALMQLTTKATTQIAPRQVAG

The target of test [1] is B2. Description: cell-based or functional assay.
For test [2], the target named is mFc-M1R-01 (M1R-01 fused with mouse IgG Fc), purified. The test is described as follows: SPR; BiaCore T200; […]; 1:1 binding model. The conditions noted are these: both partners purified. A general note: SPR reads the build-up and loss of mass on a sensor chip optically.

Take B1: in test [1], the “neutralizing IC50 against IMV of MVA and VACV-WR (plaque reduction)” value is approximately 20 µg/mL.

Molecule B2 showed a Kd in test [2] of 1.79 nM.

A word on the Kd: it is the concentration at which binding is half-saturated. High values mean a looser complex, low ones a tighter complex.

(Values after PMC11937253, “Identification of neutralizing nanobodies protecting against poxvirus infection” (Cell Discovery, 2025).)
